Measured values: the supplement of paper PMC9931576
Human monoclonal antibodies against the spike receptor-binding domain (heavy:light variable regions). IC50 against pseudoviruses bearing the spike of naturally observed variants; lower = stronger; >10 µg/ml means not reached at the top dose. No active / inactive call. The stated detection limit is 0.0005 µg/ml; values near or below 0.001 µg/ml lie at the floor of the assay.

B1: BD56-703 (protein)
chain 1: QVQLVESGGGVVQPGRSLRLSCAASGFAFRNYGMHWLRQAPGKGLQWVAVISNGGGNKAYADSVKGRFTISRDNSKNTLSLQMNSLRPEDTAVYFCAKDPEDGIVGTTGWIDSWGQGALVTVSS
chain 2: SYVLTQPPSVSVAPGQTARITCGGQDIGSKSVHWYQQKPGQAPVLVVYDDSDRPSGIPERFSGSNSGNTATLTISRVEAGDEADYYCQVWESRGDHWVFGEGTKLTVL
B2: BD56-705 (protein)
chain 1: EVQLVQSGTEVKKPGESLKISCKASGFMFTSYWIGWVRQMPGKGLEWMGVIYPGDSDTRYSPSFQGQVTISADKAINTAYLQWSSLKASDTAMYFCVLPLGRTYQAPFDYWGQGTLVTVSS
chain 2: EIVLTQSPGTLSLSPGERATLSCRASQSLSSSYLAWYQQKPGQAPRLLIYGASDRATGIPDRFSGSGSGTDFTLTISRLEPEDFAVFYCQHYGSSPLTFGGGTKVEIK
B3: BD56-698 (protein)
chain 1: QVQLVQSGSELKKPGASVKVSCKASGYTFTKYALNWVRQAPGQGLEWMGWINTNSGDPTYAQGFRGRFVFALDTSVSTAYLQISSLKAEDTAVYYCARVFREAAAVYQYYYAMEVWGQGTTVTVSS
chain 2: SYVLTQPPSVSVAPGQTARITCGGNDIGSKSVHWYEQKPGQAPVLVVHDDSVRPSGIPERFSGSNSGNTATLTISRVEAGDEADYYCQVWDSSGVFGGGTTLTVL
B4: BD56-688 (protein)
chain 1: EVQLVQSGAEVKKPGESLKISCKGSGYSFTSYWIGWVRQMPGKGLEWMGIIYPGDSDTRYSPSFQGQVTISADKSISTAYLQWSSLKASDTAMYYCARLLCGGDCPLEYWGQGTLVTVSS
chain 2: QSALTQPASVSGSPGQSITISCTGTSSDVGDYNYVSWYQQHPGKAPKLMIYDVSDRPSGVSNRFSGSKSGNTASLTISGLQAEDEADYYCSSYTSSSTLFGGGTKLTVL
B5: BD56-713 (protein)
chain 1: EVQLVESGGGLVQPGGSLRLSCAASGFTFSDYSMNWVRQAPGKGLEWISYITSSSTNIYHADSVKGRFTISRDNAKNSLYLQMNSLRAEDTAVYFCARDYDTTGPGDLFDYWGQGTLVTVSS
chain 2: SYVLTQPPSVSVAPGKTARITCGGDNIGSKSVHWYQQKPGQAPVLVIYYDSDRPSGIPDRFSGSNSGNTATLTISRVEAGDEADYYCQVWDTGRVFGGGTKLTVL
B6: BD56-715 (protein)
chain 1: QVQLVQSGAEVKKPGASLKVSCKASGYSFTSYGISWVRQAPGQGLEWMGWISPYNRATNYAQKFQGRVTMTTDTSTSTVYMELRSLRSDDTAVYYCVRDDDFVWGSYRLFGDYWGQGTLVTVSS
chain 2: QSVLTQPPSASGTPGQRVTISCSGSSSNIGYYYVYWYQHLPGTAPKLLIYRNNQRPSGVPDRFSGSKSGTSASLAISGLRSEDEADYYCASWDDSLSGPVFGGGTKLTVL

target: SARS-CoV-2 Omicron BA.1 spike pseudovirus; assay: pseudovirus neutralization IC50; higher = weaker neutralization
Protocol: (§1)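 Single-round VSV luciferase pseudovirus mixed with antibody dilutions for 1 h and put on Huh-7 cells for about a day; IC50 from the dose curve.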

| Binder | pseudovirus neutralization IC50 |
| --- | --- |
| B1 | 3.66 µg/mL |
| B2 | 2.65 µg/mL |
| B3 | 1.86 µg/mL |
| B4 | > 10 µg/mL |
| B5 | > 10 µg/mL |
| B6 | > 10 µg/mL |

target: SARS-CoV-2 Omicron BA.2 spike pseudovirus; assay: as above
Protocol: as §1

| Binder | pseudovirus neutralization IC50 |
| --- | --- |
| B1 | 3.49 µg/mL |
| B2 | 5.37 µg/mL |
| B3 | 2.31 µg/mL |
| B4 | > 10 µg/mL |
| B5 | > 10 µg/mL |
| B6 | > 10 µg/mL |

target: SARS-CoV-2 Omicron BA.2.75 spike pseudovirus; assay: as above
Protocol: as §1

| Binder | pseudovirus neutralization IC50 |
| --- | --- |
| B1 | 2.99 µg/mL |
| B2 | 4.79 µg/mL |
| B3 | 2.54 µg/mL |
| B4 | > 10 µg/mL |
| B5 | > 10 µg/mL |
| B6 | > 10 µg/mL |

target: SARS-CoV-2 Omicron BA.5 spike pseudovirus; assay: as above
Protocol: as §1

| Binder | pseudovirus neutralization IC50 |
| --- | --- |
| B1 | 3.55 µg/mL |
| B2 | 3.45 µg/mL |
| B3 | 3.45 µg/mL |
| B4 | > 10 µg/mL |
| B5 | > 10 µg/mL |
| B6 | > 10 µg/mL |

target: SARS-CoV-2 Omicron BQ.1.1 spike pseudovirus; assay: as above
Protocol: as §1

| Binder | pseudovirus neutralization IC50 |
| --- | --- |
| B1 | 7.82 µg/mL |
| B2 | 3.39 µg/mL |
| B3 | > 10 µg/mL |
| B4 | > 10 µg/mL |
| B5 | > 10 µg/mL |
| B6 | > 10 µg/mL |

target: SARS-CoV-2 Omicron XBB spike pseudovirus; assay: as above
Protocol: as §1

| Binder | pseudovirus neutralization IC50 |
| --- | --- |
| B1 | 6.62 µg/mL |
| B2 | 2.93 µg/mL |
| B3 | > 10 µg/mL |
| B4 | > 10 µg/mL |
| B5 | > 10 µg/mL |
| B6 | > 10 µg/mL |

target: SARS-CoV-2 early D614G spike pseudovirus; assay: as above
Protocol: as §1

| Binder | pseudovirus neutralization IC50 |
| --- | --- |
| B1 | > 10 µg/mL |
| B2 | > 10 µg/mL |
| B3 | > 10 µg/mL |
| B4 | > 10 µg/mL |
| B5 | > 10 µg/mL |
| B6 | > 10 µg/mL |
